Data source: PubChem BioAssay AID624099 (ICCB-Longwood, 2012)

Aim: 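Host factors E2 relies on to silence an HPV18 LCR reporter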 (primary screen)
Cell system: human C33A cervical carcinoma cells (HPV-negative) stably expressing BPV1 E2 and an HPV18 LCR luciferase reporter
Reagent: siRNA pool against human genes, 40 nM
Duration: 72 h
Detection: 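Per-well luciferase luminescence, z-scored on each plate against the plate mean and SD with control wells left out, then averaged across three replicate plates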
Reading the numbers: mean z-score and z-score: higher = stronger reporter signal, weaker E2 silencing
Active means: 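Mean z ≥ 2 together with z ≥ 2 in two or more of the three replicates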
The whole screen tested about 21,000 reagents; below is a random part of them. 497 of all reagents (2.4%) were called active. 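Higher z means weaker E2 silencing; only reporter increases were scored, and knock-downs that hurt cell survival may mask genuine repressor factors.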 No sequences are given here.

ZBTB2 scored mean z-score -1.22; z-score, replicate A = -1.29; z-score, replicate B = -0.9; z-score, replicate C = -1.46; inactive.
GBP1 scored mean z-score -1.25; z-score, replicate A = -1.11; z-score, replicate B = -1.39; z-score, replicate C = -1.24; inactive.
For ANK2, the entry reads mean z-score -0.19; z-score, replicate A = -0.24; z-score, replicate B = -0.13; z-score, replicate C = -0.19; inactive.
Silencing of ZNF850 came out at: mean z-score -0.65; z-score, replicate A = -0.79; z-score, replicate B = -0.29; z-score, replicate C = -0.87; inactive.
Against EEFSEC, the entry reads mean z-score 2.13; z-score, replicate A = 2.33; z-score, replicate B = 2; z-score, replicate C = 2.05; active.
Against LCE2C, the entry reads mean z-score 1.8; z-score, replicate A = 1.37; z-score, replicate B = 1.93; z-score, replicate C = 2.08; inactive.
Depletion of ARL6IP6 came out at: mean z-score -0.97; z-score, replicate A = -1.34; z-score, replicate B = -0.73; z-score, replicate C = -0.83; inactive.
ZNF182 gave mean z-score 1.06; z-score, replicate A = 0.93; z-score, replicate B = 1.23; z-score, replicate C = 1.02; inactive.
PIK3R5 gave mean z-score -2.8; z-score, replicate A = -2.77; z-score, replicate B = -2.7; z-score, replicate C = -2.94; inactive.
ANKRD45 gave mean z-score -0.06; z-score, replicate A = -0.33; z-score, replicate B = 0.23; z-score, replicate C = -0.08; inactive.
After knock-down of CABYR, the screen gave mean z-score 0.1; z-score, replicate A = 0.13; z-score, replicate B = 0.04; z-score, replicate C = 0.14; inactive.
After knock-down of PRPS2 the results were mean z-score -0.74; z-score, replicate A = -0.91; z-score, replicate B = -0.52; z-score, replicate C = -0.8; inactive.
